Values of other authors, collected in patent US20080255099A1 (priority 2004, published 2008).

Tested on: human tumors
Details: human tumors transplanted in nude mice; Welsh et al. 2004; cited from earlier work

Which “antitumoral activity (in words)” value does the source give for `N[C@@H](Cc1ccc([N+]([O-])(CCCl)CCCl)cc1)C(=O)O` here?
Its value is “marked antitumoral activity”.
